A mixed list of measured activities; the numbers were collected in NIAID ChemDB.

Common to all: host cell toxicity; cells: VERO; measure: CC50

CCn is the concentration with n% toxicity to the cells.

structure | method | value
CC(C)(C)c1cc(C(C)(C)C)c2oc(-c3ccccc3Br)nc2c1 |  | 53.6 µg/mL
CCCCS(=O)(=O)Nc1ccc2[nH]c(C(=O)N3CCN(C(=O)OC(C)(C)C)CC3)c(C)c2c1 | resazurin | 52 µM
CSc1nsc(-c2ccc(Cl)cc2)c1C#N |  | 5 µM
Cc1ccn2c(C(=O)NCc3ccc(NCCOCCN)c(F)c3)c(C)nc2c1 |  | >32 µM
Nc1ncnc2c([C@@H]3O[C@H](CSCCC(N)C(=O)O)C[C@H]3O)[nH]nc12 |  | 40 µg/mL
O=C(NS(=O)(=O)OC[C@H]1O[C@@H](n2ccc(=O)[nH]c2=O)[C@H](O)[C@@H]1O)O[C@H]1O[C@H](COC(=O)c2ccccc2)[C@@H](OC(=O)c2ccccc2)[C@H](OC(=O)c2ccccc2)[C@H]1OC(=O)c1ccccc1 |  | 192 µg/mL
CCN(CC)CCNc1ccc2nc(C)n3c4ccc(O)cc4c(=O)c1c23.Cl |  | 0.35 µg/mL
CC(C)N=c1cc2n(-c3ccc(Cl)cc3)c3ccccc3nc-2cc1Nc1ccc(Cl)cc1 | MTT | 0.54 µg/mL
CC(C)(C)c1cc(C(C)(C)C)c2oc(/C=C/c3ccccc3)nc2c1 |  | 902.2 µg/mL
Cc1ccn2c(C(=O)NCc3ccc(N4CCSCC4)c(F)c3)c(C)nc2c1 |  | >32 µM
Nc1ncnc2c1ncn2[C@@H]1O[C@H](CSCCC(N)C(=O)O)C[C@H]1O |  | 200 µg/mL
Cc1c(C(=O)NCc2ccccc2)[nH]c2ccc(NS(=O)(=O)CCCCF)cc12 | resazurin | >120 µM
COc1nsc(-c2ccccc2)c1C#N |  | 25 µM
CC(=O)OC[C@H]1O[C@H](OC(=O)NS(=O)(=O)OC[C@H]2O[C@@H](n3ccc(=O)[nH]c3=O)[C@H](OC(C)C)[C@@H]2OC(C)C)[C@@H](OC(C)=O)[C@@H](OC(C)=O)[C@@H]1OC(C)=O |  | 100 µg/mL
Nc1ncnc2c1ncn2C[C@H](O)CO |  | >400 µg/mL
Cc1cn2c(C(=O)NCc3ccc(N4CCC(c5ccc(OC(F)(F)F)cc5)CC4)cc3)c(C)nc2s1 |  | >32 µM
Nc1ccn([C@@H]2O[C@H](CO)[C@@H](CO)[C@@H]2F)c(=O)n1 |  | ≥100 µM
CC(C)Oc1ccc(C2(C#N)CCC(=O)N2c2ccccc2)cc1 | absorbance | 47.6 µM
Nc1ncnc2c1ncn2[C@H]1O[C@@H](CO)[C@H](O)C1(F)F |  | >100 µM
Cc1ccn2c(C(=O)NCc3ccc(N4CCC(N)CC4)c(F)c3)c(C)nc2c1 |  | >32 µM
FC(F)(F)c1ccccc1Cn1ccc2nc(-c3ccccc3)nc-2c1 |  | >100 µg/mL
CC(C)O[C@@H]1[C@H](OC(C)C)[C@@H](COS(=O)(=O)NC(=O)O[C@@H]2C[C@@H](OC(=O)c3ccccc3)[C@H](OC(=O)c3ccccc3)[C@@H](COC(=O)c3ccccc3)O2)O[C@H]1n1ccc(=O)[nH]c1=O |  | 250 µg/mL
CC(C)(C)[Si](C)(C)O[C@H]1[C@H](CO)O[C@H](n2ccc(N)nc2=O)C1(F)F |  | >100 µM
CCCCS(=O)(=O)Nc1ccc2[nH]c(C(=O)NCc3ccc(F)cc3)c(C)c2c1 | resazurin | >120 µM
Cc1nc2ccc(Cl)cn2c1C(=O)NCc1ccc(N2CCC(c3ccc(OC(F)(F)F)cc3)CC2)cc1 |  | >32 µM
Nc1ncnc2c1ncn2[C@@H]1O[C@@H](CO)[C@H](O)C1(F)F |  | >100 µM
Nc1nccc2c1ncn2[C@@H]1O[C@H](CO)C[C@H]1O |  | 200 µg/mL
Cc1ccc(NC(C#N)c2ccc(OCc3c(Cl)cccc3Cl)cc2)cc1 | absorbance | 80.9 µM
CCCCS(=O)(=O)Nc1ccc2[nH]c(C(=O)N3CCOCC3)c(C)c2c1 | resazurin | >130 µM
c1ccc(-c2nc3ccn(CC4CCCCC4)cc-3n2)cc1 |  | 60 µg/mL
CC(C)O[C@@H]1[C@H](OC(C)C)[C@@H](COS(=O)(=O)NC(=O)O[C@@H]2C[C@@H](OC(=O)c3ccccc3)C[C@@H](COC(=O)c3ccccc3)O2)O[C@H]1n1ccc(=O)[nH]c1=O |  | 200 µg/mL
CCCCS(=O)(=O)Nc1ccc2[nH]c(C(=O)NCc3ccc(F)cc3F)c(C)c2c1 | resazurin | 110 µM
Cc1ccn2c(C(=O)NCc3ccc(N(C)C)cc3)c(C)nc2c1 |  | >32 µM
CC(C)OC1[C@H](n2ccc(=O)[nH]c2=O)O[C@H](COS(=O)(=O)NC(=O)N[C@H]2O[C@H](COCc3ccccc3)[C@@H](OCc3ccccc3)[C@H](OCc3ccccc3)[C@H]2OCc2ccccc2)[C@H]1OC(C)C |  | 200 µg/mL
CCCCS(=O)(=O)Nc1ccc2[nH]c(C(=O)Nc3cccc4ccccc34)c(C)c2c1 | resazurin | 110 µM
CCOC(=O)C(N)CCSC[C@H]1O[C@@H](n2ccc3c(N)ncnc32)[C@H](O)[C@@H]1O |  | 100 µg/mL
CCCCCS(=O)(=O)Nc1ccc2[nH]cc(C)c2c1 | resazurin | 180 µM
CC(C)(C)c1cc(C(C)(C)C)c2oc(-c3ccccn3)nc2c1 |  | 32.9 µg/mL
Nc1ncnc2c([C@@H]3O[C@H](CO)C[C@H]3O)[nH]nc12 |  | 400 µg/mL
Cc1cn2c(C(=O)NCc3ccc(N4CCS(=O)(=O)CC4)cc3)c(C)nc2s1 |  | >32 µM
CSc1nsc(-c2ccc(C(F)(F)F)cc2)c1C#N |  | 14 µM
COC1CCC(N=c2cc3n(-c4ccc(Cl)cc4)c4ccccc4nc-3cc2Nc2cccnc2C)CC1 | MTT | 50.88 µg/mL
c1ccc(Cn2ccc3nc(-c4ccccc4)nc-3c2)cc1 |  | >100 µg/mL
Cc1ccc(N2C(=O)CCC2(C#N)c2ccc(OCc3c(Cl)cccc3Cl)cc2)cc1 | absorbance | 52.9 µM
CCCCS(=O)(=O)Nc1ccc2[nH]c(C(=O)NCC)c(C)c2c1 | resazurin | >150 µM
CN(C)c1cccc(-c2nc3ccn(Cc4ccc(Br)cc4)cc-3n2)c1 |  | >100 µg/mL
Cc1cn2c(C(=O)NCc3ccc(S(F)(F)(F)(F)F)cc3)c(C)nc2s1 |  | >32 µM
CSc1nsc(-c2cccc(Cl)c2)c1C#N |  | 10 µM
N#CC1(c2ccc(OCc3ccccc3)cc2)CCC(=O)N1Cc1ccccc1 | absorbance | 3 µM
CC(C)O[C@@H]1[C@H](OC(C)C)[C@@H](COS(=O)(=O)NC(=O)O[C@H]2O[C@H](COCc3ccccc3)[C@H](OCc3ccccc3)[C@H](OCc3ccccc3)[C@H]2OCc2ccccc2)O[C@H]1n1ccc(=O)[nH]c1=O |  | 220 µg/mL
Cc1c(C#N)[nH]c2ccc(NS(=O)(=O)CCCC(F)(F)F)cc12 | resazurin | >140 µM

The last 3 rows once more:

structure | method | value
N#CC1(c2ccc(OCc3ccccc3)cc2)CCC(=O)N1Cc1ccccc1 | absorbance | 3 µM
CC(C)O[C@@H]1[C@H](OC(C)C)[C@@H](COS(=O)(=O)NC(=O)O[C@H]2O[C@H](COCc3ccccc3)[C@H](OCc3ccccc3)[C@H](OCc3ccccc3)[C@H]2OCc2ccccc2)O[C@H]1n1ccc(=O)[nH]c1=O |  | 220 µg/mL
Cc1c(C#N)[nH]c2ccc(NS(=O)(=O)CCCC(F)(F)F)cc12 | resazurin | >140 µM

Rows are shuffled and stem from different studies. An empty or dashed field is not shown.